Tested on: AMD3100 resistant virus
Type: cell-based, HIV-1
Conditions: MT-4 cells

c1cc(CN2CCCNCCNCCCNCC2)ccc1CN1CCCNCCNCCCNCC1 [AMD3100, plerixafor]
loss in potency on AMD3100 resistant virus: ~100 fold
